Results reported in paper PMC4802734 (Cell Chemical Biology, 2016).

Chains of the proteins cited; added tags and fusions are not shown. Residues count along the entry.
UniProt P22262, 7-237 limits assumed: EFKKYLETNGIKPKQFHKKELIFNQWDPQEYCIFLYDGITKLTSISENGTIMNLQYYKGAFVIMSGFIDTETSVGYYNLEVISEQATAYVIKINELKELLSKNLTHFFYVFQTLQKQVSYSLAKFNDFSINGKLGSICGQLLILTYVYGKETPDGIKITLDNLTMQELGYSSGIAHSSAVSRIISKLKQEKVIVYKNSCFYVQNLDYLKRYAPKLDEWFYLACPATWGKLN

Biological target: T1, PrfAWT (Listeria monocytogenes serovar 1/2a, UniProt P22262)
T1 construct: followed by residues Glu7-N237; vector-derived N-terminal tail […]; (left after thrombin cleavage; inferred from pET28a and Ni-NTA capture), removed by thrombin (N, cleaved yes); made in house; host or cells: E. coli BL21(DE3)
Assay: Isothermal titration calorimetry (ITC), binding to purified PrfAWT
Conditions: determined at 293 K

SMILES | Kd | ΔHA, enthalpy of association | ΔSA, entropy of association
Cc1ccc(Cc2cc(=O)n3c(c2C2CC2)SC[C@H]3C(=O)O)c2ccccc12 [compound 2] | 6.7 µM | -6.5 kcal/mol | 2.8 cal/mol·K
O=C(O)[C@@H]1CSc2c(C3CC3)c(Cc3cnc4ccccc4c3)cc(=O)n21 [compound 3] | 1.6 µM | -8.4 ± 0.2 kcal/mol | −1.5 ± 0.9 cal/mol·K
